A short description of this series: Comparative Bonding Test on kitchen and bath surfaces. To be noted: for Comparative Bonding Test Results, H2O2 Alone: 3% hydrogen peroxide alone.

SMILES strings stand for the structures.

Consider one compound from US20050096250A1, “Cleaning and multifunctional coating composition containing an organosilane quaternary compound and methods of using” (Resource Development L.L.C., priority 2003, published 2005).

With `OO` [Example H2O2, hydrogen peroxide], the “Comparative Bonding Test Results, H2O2 Alone” value is “Poor (Relatively flat water drops, exhibiting more spread of the water and measuring 50° to 70°)” (Baked Enamel (Example 14)); “Poor (Relatively flat water drops, exhibiting more spread of the water and measuring 50° to 70°)” (Chemically Frosted Glass (Example 17)); “Poor (Relatively flat water drops, exhibiting more spread of the water and measuring 50° to 70°)” (Corian (by DuPont) (Example 19)); “Poor (Relatively flat water drops, exhibiting more spread of the water and measuring 50° to 70°)” (Formica Counter Top (Example 18)); “Poor (Relatively flat water drops, exhibiting more spread of the water and measuring 50° to 70°)” (Glass (Example 22)); “Poor (Relatively flat water drops, exhibiting more spread of the water and measuring 50° to 70°)” (Granite Tile (Example 21)). In addition, the “Comparative Bonding Test Results, H2O2 Alone” value reads like this: (Marble Tile (Example 20)) “Poor (Relatively flat water drops, exhibiting more spread of the water and measuring 50° to 70°)”; (Smooth Ceramic Tile (Example 15)) “Poor (Relatively flat water drops, exhibiting more spread of the water and measuring 50° to 70°)”; (Textured Ceramic Tile (Example 16)) “Poor (Relatively flat water drops, exhibiting more spread of the water and measuring 50° to 70°)”. Moreover, under “all surfaces of Examples 14-22, after scrubbing”, the “bonding or durability, H2O2 alone” value was “Poor (Relatively flat water drops, exhibiting more spread of the water and measuring 50° to 70°)”.
